Measured values reported in paper PMC4807363, “Cryo-electron Microscopy Structures of Chimeric Hemagglutinin Displayed on a Universal Influenza Vaccine Candidate” (2016).

Experiments:
[1] = target: H1 hemagglutinin (HA) displayed on pH1N1 virus (influenza A virus, pH1N1 (strain not stated for the imaged virus))
[2] = target: H5 hemagglutinin (HA) displayed on H5N1 virus (influenza A virus, H5N1 (strain not stated for the imaged virus))

Row | Substance | stoichiometry N [1] | stoichiometry N [2]
1 | H1 hemagglutinin (HA) displayed on pH1N1 virus | 3 | 
2 | H5 hemagglutinin (HA) displayed on H5N1 virus |  | 3
